{"source": "patent US20240122867A1", "about": "“CORONAL PROTEIN-COATED NANOPARTICLES AND USES THEREOF” (UNIVERSITY OF CENTRAL FLORIDA RESEARCH FOUNDATION, INC., priority 2021, published 2024)", "molecules": {"B1": {"name": "Mannan-binding lectin serine protease 1 (protein, UniProt P98064 25-704, looked up)", "Mannan-binding lectin serine …": "HTVELNEMFGQIQSPGYPDSYPSDSEVTWNITVPEGFRIKLYFMHFNLESSYLCEYDYVKVETEDQVLATFCGRETTDTEQTPGQEVVLSPGTFMSVTFRSDFSNEERFTGFDAHYMAVDVDECKEREDEELSCDHYCHNYIGGYYCSCRFGYILHTDNRTCRVECSGNLFTQRTGTITSPDYPNPYPKSSECSYTIDLEEGFMVSLQFEDIFDIEDHPEVPCPYDYIKIKAGSKVWGPFCGEKSPEPISTQTHSVQILFRSDNSGENRGWRLSYRAAGNECPKLQPPVYGKIEPSQAVYSFKDQVLVSCDTGYKVLKDNEVMDTFQIECLKDGAWSNKIPTCKIVDCGAPAGLKHGLVTFSTRNNLTTYKSEIRYSCQQPYYKMLHNTTGVYTCSAHGTWTNEVLKRSLPTCLPVCGVPKFSRKQISRIFNGRPAQKGTMPWIAMLSHLNGQPFCGGSLLGSNWVLTAAHCLHQSLDPEEPTLHSSYLLSPSDFKIIMGKHWRRRSDEDEQHLHVKRTTLHPLYNPSTFENDLGLVELSESPRLNDFVMPVCLPEQPSTEGTMVIVSGWGKQFLQRFPENLMEIEIPIVNSDTCQEAYTPLKKKVTKDMICAGEKEGGKDACAGDSGGPMVTKDAERDQWYLVGVVSWGEDCGKKDRYGVYSYIYPNKDWIQRITGVRN"}}, "tested_on": "coronal proteins on NPs", "parameters": "species or system mouse"}
{"molecule": "B1", "values": [{"measurement": "V5 Sera_Nanoparticles Quantitative Value (Normalized Total Spectra)", "setting": "HBPE-NPs incubated with IAV day 5 (V5) mouse sera 1 h, 20:1 NP:sera, centrifuged and washed", "result": 0}, {"measurement": "V5 Sera Alone (Control) Quantitative Value (Normalized Total Spectra)", "setting": "IAV day 5 (V5) mouse sera alone, no NPs, mass spectrometry protein identification", "result": 0.9252}]}
